A mixed list of measured activities; the numbers were collected in NIAID ChemDB.

MIC bound: limit read from a one-dose screen. Percent inhibition refers to the dose given; in toxicity tests it is the harm to the cells. ICn: concentration for n% inhibition. An empty or dashed field is not shown. Rows are shuffled and stem from different studies.

Oc1ccc(O)c(Cl)c1Cl ; kind: culture ; species: Mycobacterium tuberculosis ; endpoint: MIC ; strain or isolate: H37Rv ; value: 100 µg/mL
COc1ccccc1N1CCN(c2cncc(-c3ccccc3C)n2)CC1 ; kind: target ; protein: UL97 kinase ; species: Cytomegalovirus ; endpoint: IC50 ; value: <100 µM
Fc1ccc(N2CCCCC2)c(NC(=S)c2ccncc2)c1 ; kind: host protein ; tested at: 10 µM ; read by: kinase activity ; protein: SRPK1 ; endpoint: inhibition ; value: 6%
O=S(=O)(O)c1ccc2cc(O)ccc2c1 ; kind: culture ; species: Mycobacterium tuberculosis ; endpoint: MIC ; strain or isolate: H37Rv ; value: >100 µg/mL
CCCCOC(=O)c1c2nc3c(C(=O)OCCCC)ccc(C)c3oc-2c(C)c(=O)c1NC(C)=O ; kind: culture ; read by: BACTEC ; species: Mycobacterium tuberculosis ; endpoint: MIC bound ; strain or isolate: H37Rv ; value: >12.5 µg/mL
CC(C)(C)c1ccc(-c2cncc(N3CCN(c4ccncc4)CC3)n2)cc1 ; kind: target ; tested at: 1 µM ; protein: UL97 kinase ; species: Cytomegalovirus ; endpoint: inhibition ; value: <50%
CCC12OC(COc3ccccc3)CN1CCN2c1ccccc1 ; kind: culture ; tested at: 12.5 µg/mL ; read by: BACTEC ; species: Mycobacterium tuberculosis ; endpoint: inhibition ; strain or isolate: H37Rv ; value: -10%
Cc1ccc(C)n1-c1cccc(-c2ccccn2)c1 ; kind: culture ; species: Mycobacterium tuberculosis ; endpoint: MIC ; strain or isolate: H37Rv ; value: >100 µg/mL
O=c1c2c(c(=O)c(=O)c1=O)Nc1ccccc1N2 ; kind: culture ; read by: BACTEC ; species: Mycobacterium tuberculosis ; endpoint: MIC bound ; strain or isolate: H37Rv ; value: ≤12.5 µg/mL
Cc1cccc(-c2cncc(N3CCN(c4cccc(C(F)(F)F)c4)CC3)n2)c1C ; kind: target ; tested at: 10 µM ; protein: UL97 kinase ; species: Cytomegalovirus ; endpoint: inhibition ; value: >15%
O=S(=O)([O-])c1cc(S(=O)(=O)[O-])c2cc([O-])ccc2c1.[Na+].[Na+].[Na+] ; kind: culture ; species: Mycobacterium tuberculosis ; endpoint: MIC ; strain or isolate: H37Rv ; value: >100 µg/mL
COc1ccc(-c2cncc(N3CCC(c4ccccc4)CC3)n2)cc1OC ; kind: target ; protein: UL97 kinase ; species: Cytomegalovirus ; endpoint: IC50 ; value: <10 µM
O=c1oc2cccc(O)c2c(O)c1Cc1ccccc1 ; kind: culture ; tested at: 12.5 µg/mL ; read by: BACTEC ; species: Mycobacterium tuberculosis ; endpoint: inhibition ; strain or isolate: H37Rv ; value: 0%
O=[N+]([O-])c1ccc([N+](=O)[O-])o1 ; kind: culture ; species: Mycobacterium tuberculosis ; endpoint: MIC ; strain or isolate: H37Rv ; value: >100 µg/mL
COc1cc(-c2cncc(N3CCN(c4cccc5[nH]ccc45)CC3)n2)cc(OC)c1OC ; kind: target ; tested at: 10 µM ; protein: UL97 kinase ; species: Cytomegalovirus ; endpoint: inhibition ; value: >15%
Cc1c(C(=N)N)oc2ccccc12.Cl ; kind: culture ; read by: BACTEC ; species: Mycobacterium tuberculosis ; endpoint: MIC bound ; strain or isolate: H37Rv ; value: >12.5 µg/mL
Oc1c(Cl)cc(Cl)cc1Cl ; kind: culture ; species: Mycobacterium tuberculosis ; endpoint: MIC ; strain or isolate: H37Rv ; value: >100 µg/mL
O=C(O)C(=O)NCc1cnccn1 ; kind: culture ; read by: BACTEC ; species: Mycobacterium tuberculosis ; endpoint: MIC ; strain or isolate: H37Rv ; value: ≥12.5 µg/mL
CCC(C)(C)c1ccc(Oc2ccc(C(=O)N=C3CC(=O)NN3c3ccccc3)cc2)cc1 ; kind: culture ; species: Mycobacterium tuberculosis ; endpoint: MIC ; strain or isolate: H37Rv ; value: >100 µg/mL
COC1=CC=C2Nc3nc(N)[nH]c(=O)c3SC2N1 ; kind: culture ; read by: BACTEC ; species: Mycobacterium tuberculosis ; endpoint: MIC bound ; strain or isolate: H37Rv ; value: >12.5 µg/mL
COc1ccc(N2CCN(c3cncc(-c4cc5ccccc5s4)n3)CC2)cc1 ; kind: target ; protein: UL97 kinase ; species: Cytomegalovirus ; endpoint: IC50 ; value: <10 µM

The last 2 rows once more:

| compound | kind | tested at | read by | protein | species | endpoint | strain or isolate | value |
|---|---|---|---|---|---|---|---|---|
| COC1=CC=C2Nc3nc(N)[nH]c(=O)c3SC2N1 | culture |  | BACTEC |  | Mycobacterium tuberculosis | MIC bound | H37Rv | >12.5 µg/mL |
| COc1ccc(N2CCN(c3cncc(-c4cc5ccccc5s4)n3)CC2)cc1 | target |  |  | UL97 kinase | Cytomegalovirus | IC50 |  | <10 µM |